According to the CheMixHub viscosity set:

Legend:
[1] = xn = mol fraction of the nth substance listed; conditions: 101.3 kPa
[2] = 101.3 kPa

CCC[N+]1(C)CCCCC1.O=S(=O)(F)[N-]S(=O)(=O)F + CCCC[N+]1(C)CCCC1.O=S(=O)(F)[N-]S(=O)(=O)F
viscosity [mPa·s], [1]
Conditions | x1 = 0.2 | x1 = 0.4 | x1 = 0.6 | x1 = 0.8
293.15 K | 93.2 ± 19 | 72.4 ± 15 | 68.1 ± 14 | 65.9 ± 13
298.15 K | 75.7 ± 15 | 59.6 ± 12 | 56.4 ± 11 | 54.8 ± 11
303.15 K | 62.3 ± 12 | 49.7 ± 10 | – | –

CCC[N+]1(C)CCCCC1.O=S(=O)(F)[N-]S(=O)(=O)F
[2]
Conditions | viscosity [mPa·s]
293.15 K | 61.4 ± 12
298.15 K | 51.2 ± 10
303.15 K | 43.3 ± 8.7
308.15 K | 36.9 ± 7.4
313.15 K | 31.8 ± 6.4
318.15 K | 27.6 ± 5.5
323.15 K | 24.2 ± 4.8

CCC[N+]1(C)CCCCC1.O=S(=O)(F)[N-]S(=O)(=O)F + CCC[N+]1(C)CCCCC1.O=S(=O)([N-]S(=O)(=O)C(F)(F)F)C(F)(F)F
viscosity [mPa·s], [1]
Conditions | 293.15 K | 298.15 K | 303.15 K | 308.15 K
x2 = 0.2 | 70.3 ± 14 | 57.8 ± 12 | – | –
x2 = 0.4 | 86.5 ± 17 | 69.7 ± 14 | – | –
x2 = 0.6 | – | 79.9 ± 16 | 64.5 ± 13 | 52.8 ± 11
x2 = 0.8 | – | – | 81.5 ± 16 | 65.2 ± 13

± gives the uncertainty stated by the source.
